In ChEMBL document CHEMBL1149314, “Synthesis of AZT 5'-triphosphate mimics and their inhibitory effects on HIV-1 reverse transcriptase” (J Med Chem, 2004) one finds inhibition data, which are given here for 1 compound.

For the experiment, the system named is Human immunodeficiency virus 1. Briefly: Inhibition of HIV1 reverse transcriptase at 0.5 uM. A digest of the protocol:
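HIV reverse transcriptase (type B, 66 kDa subunit) at 2 nM with 1 µg/mL primed poly(A) RNA and 5 µM dTTP, in 50 mM Tris-HCl pH 8.1, 6.5 mM MgCl2, 100 mM NaCl and 10 mM DTT. Compounds were tested up to 500 µM final. Reactions were started with enzyme, run 10 min at 37 °C and stopped with EDTA. DNA was read by PicoGreen fluorescence (ex 480/em 538 nm), with no-enzyme or no-dTTP blanks. Percent inhibition was blank-corrected; Ki came from titration fitted to a competitive model.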

The inhibition is the drop in the measured response relative to a control, in per cent. A higher inhibition goes with strong suppression. Compound `Cc1cn([C@@H]2C[C@@H](N=[N+]=[N-])[C@H](COP(=O)(O)C(F)(F)P(=O)(O)OP(C)(=O)O)O2)c(=O)[nH]c1=O` displayed an inhibition of 14.2%.
